The chains behind the UniProt entries cited, without tags or fusion partners. Residues count along the entry.
UniProt P23008, 1515-1697 limits assumed: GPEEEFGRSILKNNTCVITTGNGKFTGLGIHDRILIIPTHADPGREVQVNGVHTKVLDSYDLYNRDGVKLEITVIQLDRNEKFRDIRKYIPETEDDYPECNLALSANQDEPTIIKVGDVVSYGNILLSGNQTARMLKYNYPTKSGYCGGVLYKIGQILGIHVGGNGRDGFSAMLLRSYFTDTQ

The assay addresses Human Rhinovirus serotype 1A 3C Protease (Human rhinovirus 1A, UniProt P23008). The assay can be described thus: 3C Protease Biochemical Assay (FRET). The note with it: 30° C., 2-6uM substrate, 416 nM 3CP. Here is the method: Human Rhinovirus serotype 1A (ATCC) was used to clone the 3C Protease into the expression vector pET16-b and transformed for production into the E. coli strain BL21-DE3-pLys-S. 3C Protease expression was induced with 1 mM IPTG at 25° C. and purified from the soluble protein extract by chromatography on a SourceQ (Pharmacia) followed by gel filtration. HRV 3CP activity was measured by fluorescence resonance energy transfer using a dimodified decapeptide substrate MOC-[…]DNP-NH2 (7-methoxy coumarin-4-acetic acid fluorochrome and dinitrophenol quencher) with a Km value of 16.8 μM. Inhibition was measured as a change in initial velocity (V0) as a function of inhibitor (I) concentration and substrate (S) concentration. Assays were performed in 100 μL volumes in a 96 well format at 30° C. containing 25 mM Tris HCl pH 8.0, 150 mM NaCl, 1 mM EDTA pH 8.0, 6 mM DTT, 2-6uM substrate, 2% DMSO, 416 nM 3CP and inhibitor as needed. Fluorescence was monitored by excitation at 328 nm and emission at 393 nm with 10 nm cutoffs. Data were analyzed with the nonlinear regression analysis program EnzFitter (BioSoft) with the equation:
Ki=(I/((VmaxxS)/V0)/Ks)−I−S
Substrate concentrations used were lower than the Km of the substrate (16.8 uM) so no corrections for an S/Km term were used.
A word on the Ki: it is a dissociation constant, usually derived from enzyme kinetics or from competition with a known ligand. Read a high Ki as weaker binding. For `O=c1c(O)cccc2cc(O)c(O)c(O)c12`, the Ki was found to be 80 µM.

For `CC1=CC(=O)c2c(O)cccc2C1=O`, the inhibition constant (Ki) was found to be 128 µM.

The compound `O=C1C(O)=C(C2=C(O)C(=O)c3ccccc3C2=O)C(=O)c2ccccc21` showed a Ki of 396 µM.

Source of the values: US20040198716A1, “Cysteine protease inhimbitors” (priority 2001, published 2004).
